A mixed list of measured activities; the numbers were collected in NIAID ChemDB.

Shared fields: tests in culture; agent: HIV-1; cell line: MT-4; measure: EC50

Blank or dashed fields: not listed here.

SMILES | strain or isolate | mutations | read by | conditions | value
CC(C)(C)NC(=O)[C@@H]1C[C@@H]2CCCC[C@@H]2CN1C[C@@H](O)[C@H](Cc1ccccc1)NC(=O)[C@H](CC(N)=O)NC(=O)c1ccc2ccccc2n1 | NL4-3 | - | - | - | 0.037 µM
Cc1cc(C)cc(S(=O)(=O)c2c(C(=O)NC(C)C(=O)NC(C)c3ccccc3F)[nH]c3ccc(Cl)cc23)c1 | NL4-3 | Y188L | cytopathic effect / MTT / absorbance | - | >152 µM
CCc1c(CC23CC4CC(CC(C4)C2)C3)nc(SCC(=O)Nc2ccc(C(N)=O)cc2)[nH]c1=O | RES056 | - | MTT / absorbance | - | ≥33.5 µM
COC(=O)c1cccc2c1nc(-c1c(F)cccc1F)n2Cc1c(F)cccc1F | - | RT-Y181C | cytopathic effect / MTT | - | 8.4 µM
NCCCC[C@@H](NC(=O)[C@H](Cc1ccc2ccccc2c1)NC(=O)[C@H](CCCN=C(N)N)NC(=O)[C@@H](N)CCCN=C(N)N)C(=O)N1CCC[C@H]1C(=O)N[C@@H](Cc1ccc(O)cc1)C(=O)N[C@@H](CCCN=C(N)N)C(=O)O | IIIB | - | cytopathic effect / MTT | - | >100 µM
O=C(N[C@H]1c2ccccc2C[C@H]1O)[C@@H](C[C@@H](O)[C@@H](OCc1ccccc1)C(=O)N[C@H]1c2ccccc2C[C@H]1O)OCc1ccccc1 | - | - | cytopathic effect | - | 1.44 µM
C=C(C)[C@H]1[C@@H]2OC3(CCCCCCCCC)O[C@@H]2[C@@H]2[C@@H]4O[C@]4(CO)[C@@H](O)[C@]4(O)C(=O)C(C)=C[C@H]4[C@@]2(O3)[C@@H]1C | NL4-3 | - | luciferase | - | 0.00069 µM
CC(C)=CCN1Cc2cc(Cl)cc3[nH]c(=S)n(c23)C[C@H]1C | - | - | cytopathic effect / MTT | - | 0.094 µg/mL
Cc1cn([C@H]2C[C@H](N=[N+]=[N-])[C@@H](CO)O2)c(=O)[nH]c1=O | TIBO-resistant L100I (RT-L100I) | RT-L100I | cytopathic effect / MTT | - | 0.01 µM
NC(N)=NCCC[C@H](NC(=O)[C@@H]1CCCN1C(=O)[C@@H](Cc1ccc(O)cc1)NC(=O)[C@H](Cc1ccc2ccccc2c1)NC(=O)[C@H](CCCN=C(N)N)NC(=O)[C@@H](N)CCCN=C(N)N)C(=O)O | IIIB | - | cytopathic effect / MTT | - | 65 µM
CCc1c(CC23CC4CC(CC(C4)C2)C3)nc(SCc2ccc(OC)cc2)[nH]c1=O | RES056 | - | MTT / absorbance | - | >10.32 µM
CC(C)=CCN1Cc2cccc3[nH]c(=S)n(c23)C[C@H]1C | - | - | cytopathic effect / MTT | - | 0.045 µg/mL
COC(=O)N[C@H](C(=O)N[C@@H](Cc1ccccc1)[C@@H](O)CN(Cc1ccc(-c2ccccn2)cc1)NC(=O)[C@@H](NC(=O)OC)C(C)(C)C)C(C)(C)C | - | - | cytopathic effect | - | 0.006 µM
Fc1cccc(F)c1Cn1c(-c2c(F)cccc2F)nc2c(Br)cccc21 | - | RT-K103N | cytopathic effect / MTT | - | 10.2 µM
Nc1ccn([C@H]2CC[C@@H](CO)O2)c(=O)n1 | IIIB | - | cytopathic effect / MTT | - | 7.5 µM
CNC(=O)[C@@H](NC(=O)[C@H](OCc1ccc(CCc2ccccc2)cc1)[C@H](O)[C@@H](O)[C@@H](OCc1ccc(CCc2ccccc2)cc1)C(=O)N[C@H](C(=O)NC)C(C)C)C(C)C | - | - | cytopathic effect | - | 2.05 µM
Nc1cccc2c1nc(-c1c(F)cccc1F)n2Cc1c(F)cccc1F | - | RT-L74V | cytopathic effect / MTT | - | 0.3 µM
Cc1ccnc2c1NC(=O)c1cccnc1N2C1CC1 | - | RT-D67N K70R T215Y K219Q L100I | - | - | <0.4 µM
Cc1cc(C)cc(S(=O)(=O)c2c(C(=O)NC(C)C(=O)NC(C)c3ccncc3)[nH]c3ccc(Cl)cc23)c1 | NL4-3 | K103N/Y181C | cytopathic effect / MTT / absorbance | - | >0.364 µM
CCc1c(CC23CC4CC(CC(C4)C2)C3)nc(SCC(=O)Nc2ccccc2)[nH]c1=O | RES056 | - | MTT / absorbance | - | >15.88 µM
O[C@H]1[C@H](O)[C@@H](O)CN2CC[C@H](O)[C@H]12 | IIIB | - | cytopathic effect / MTT | - | 126 µg/mL
CCc1c(CC23CC4CC(CC(C4)C2)C3)nc(SCC(=O)c2ccccc2)[nH]c1=O | RES056 | - | MTT / absorbance | - | >20.42 µM
CCCO[C@@H](C(=O)N[C@H](C(=O)NC)C(C)C)[C@H](O)[C@@H](O)[C@@H](OCCC)C(=O)N[C@H](C(=O)NC)C(C)C | - | - | cytopathic effect | - | >192 µM
Cc1cn([C@H]2C[C@H](N=[N+]=[N-])[C@@H](CO)O2)c(=O)[nH]c1=O | IIIB | - | cytopathic effect / MTT | - | 0.0033 µM
CCc1c(CC23CC4CC(CC(C4)C2)C3)nc(SCC(=O)Nc2ccc(C(C)=O)cc2Br)[nH]c1=O | IIIB | - | MTT / absorbance | - | 0.25 µM
Cc1ccnc2c1NC(=O)c1cccnc1N2C1CC1 | IIIB | - | cytopathic effect / MTT | - | 0.17 µM
CC(C)=CCN1CCn2c(=S)[nH]c3ccc(Cl)c(c32)C1 | - | - | cytopathic effect / MTT | - | 0.1 µg/mL
CN(C)c1cccc2c(S(=O)(=O)N3CCSC3c3ccncc3)cccc12 | IIIB | - | cytopathic effect / MTT | - | >5.56 µM
Nc1ccn([C@H]2CC[C@@H](CO)O2)c(=O)n1 | IIIB | - | cytopathic effect / MTT | - | 0.048 µg/mL
C=C(C)[C@]12C[C@@H](C)[C@@]34OC5(CCCCCCC[C@H](C)[C@H]6[C@H](C)[C@H](OC(=O)c7ccccc7)[C@@](O)([C@H](O)[C@@]7(CO)O[C@H]7[C@H]3[C@H]1O5)[C@@H]64)O2 | NL4-3 | - | luciferase | - | 0.00044 µM
O=C(O)C1=CC(=C(c2ccc(O)c(C(=O)O)c2)c2ccc(O)c(C(=O)O)c2)C=CC1=O | IIIB | - | cytopathic effect / MTT | - | 0.82 µg/mL
CC(C)=CCN1Cc2cccc3[nH]c(=S)n(c23)[C@@H](C)[C@@H]1C | - | - | cytopathic effect / MTT | - | 0.038 µg/mL
COc1ccc(Cc2nccc3cc(OC)c(OC)cc23)cc1OC | IIIB | - | cytopathic effect / MTT | - | >6 µg/mL
Cc1ccnc2c1NC(=O)c1cccnc1N2C1CC1 | IIIB | - | cytopathic effect / MTT | - | 0.077 µM
O=C(N[C@H]1c2ccccc2C[C@H]1O)[C@H](OCc1ccccc1)[C@H](O)[C@@H](O)[C@@H](OCc1ccccc1)C(=O)N[C@H]1c2ccccc2C[C@H]1O | - | - | cytopathic effect | - | 0.1 µM
CC(C)CN(C[C@@H](O)[C@H](Cc1ccccc1)NC(=O)O[C@H]1CCOC1)S(=O)(=O)c1ccc(N)cc1 | NL4-3 | L10I G48V I54V A71V I84V L90M SQV resistant | - | - | 0.435 µM
Cc1cn([C@H]2C[C@H](N=[N+]=[N-])[C@@H](CO)O2)c(=O)[nH]c1=O | IIIB-R | - | cytopathic effect / MTT | 5 d | 0.033 µM
COc1c(O)c(Cl)c2c(c1OC)-c1c(c(Cl)c(O)c(OC)c1OC)C[C@H](C)[C@H](C)C2 | IIIB | - | cytopathic effect / MTT | - | 1.23 µM
C[C@H](NC(=O)[C@H](Cc1ccc2ccccc2c1)NC(=O)[C@H](CCCN=C(N)N)NC(=O)[C@@H](N)CCCN=C(N)N)C(=O)N[C@@H](Cc1ccc(O)cc1)C(=O)O | IIIB | - | cytopathic effect / MTT | - | >100 µM
CNC(=O)[C@@H](NC(=O)[C@H](OCc1ccc(-c2nccs2)cc1)[C@H](O)[C@@H](O)[C@@H](OCc1ccc(-c2nccs2)cc1)C(=O)N[C@H](C(=O)NC)C(C)C)C(C)C | - | - | cytopathic effect | - | 0.24 µM
CN(C)c1cccc2c(S(=O)(=O)N3CCSC3c3cccnc3)cccc12 | HE-NEV | - | cytopathic effect / MTT | 5 d | >2000 µM
CC(C)=CCN1Cc2cc(Cl)cc3[nH]c(=S)n(c23)C[C@@H]1C | - | - | cytopathic effect / MTT | - | 0.0066 µg/mL
CN(C)c1cccc2c(S(=O)(=O)N3CCSC3c3ccccn3)cccc12 | IIIB | - | cytopathic effect / MTT | - | >1000 µM
C[C@H]1Cn2c(=O)[nH]c3cc(Cl)cc(c32)CN1CCC1CC1 | - | - | cytopathic effect / MTT | - | 0.0166 µg/mL
CNC(=O)[C@@H](NC(=O)[C@H](OCc1ccc(Br)cc1)[C@H](O)[C@@H](O)[C@@H](OCc1ccc(Br)cc1)C(=O)N[C@H](C(=O)NC)C(C)C)C(C)C | - | - | cytopathic effect | - | 0.65 µM
O=C1CN=C(c2ccc[nH]2)c2cc(Cl)ccc2N1 | IIIB/LAI | - | cytopathic effect / trypan blue | - | >1.3 µM
CC(=O)Oc1ccc(/C=C/C(=O)O[C@@H](C(=O)O)[C@@H](OC(=O)/C=C/c2ccc(OC(C)=O)c(OC(C)=O)c2)C(=O)O)cc1OC(C)=O | NL4-3 | AMD2763-resistant | cytopathic effect / MTT | - | >74 µM
O=c1ccn([C@H]2CC[C@@H](CO)O2)c(=O)[nH]1 | IIIB | - | cytopathic effect / MTT | - | 26 µg/mL
CC(=O)Nc1cccc2c1nc(-c1c(F)cccc1F)n2Cc1c(F)cccc1F | - | RT-V106A | cytopathic effect / MTT | - | >20 µM
Cc1cc(C#N)cc(C)c1Oc1nc(Nc2ccc(C#N)cc2)nc(N)c1Br | IIIB | K103N | MTT | - | 0.0024 µM
CNC(=O)[C@H](CCSC)NC(=O)[C@H](OCc1ccccc1)[C@H](O)[C@@H](O)[C@@H](OCc1ccccc1)C(=O)N[C@@H](CCSC)C(=O)NC | - | - | cytopathic effect | - | >58 µM

Repeating the final 7 entries:

SMILES,strain or isolate,mutations,read by,conditions,value
CNC(=O)[C@@H](NC(=O)[C@H](OCc1ccc(Br)cc1)[C@H](O)[C@@H](O)[C@@H](OCc1ccc(Br)cc1)C(=O)N[C@H](C(=O)NC)C(C)C)C(C)C,-,-,cytopathic effect,-,0.65 µM
O=C1CN=C(c2ccc[nH]2)c2cc(Cl)ccc2N1,IIIB/LAI,-,cytopathic effect / trypan blue,-,>1.3 µM
CC(=O)Oc1ccc(/C=C/C(=O)O[C@@H](C(=O)O)[C@@H](OC(=O)/C=C/c2ccc(OC(C)=O)c(OC(C)=O)c2)C(=O)O)cc1OC(C)=O,NL4-3,AMD2763-resistant,cytopathic effect / MTT,-,>74 µM
O=c1ccn([C@H]2CC[C@@H](CO)O2)c(=O)[nH]1,IIIB,-,cytopathic effect / MTT,-,26 µg/mL
CC(=O)Nc1cccc2c1nc(-c1c(F)cccc1F)n2Cc1c(F)cccc1F,-,RT-V106A,cytopathic effect / MTT,-,>20 µM
Cc1cc(C#N)cc(C)c1Oc1nc(Nc2ccc(C#N)cc2)nc(N)c1Br,IIIB,K103N,MTT,-,0.0024 µM
CNC(=O)[C@H](CCSC)NC(=O)[C@H](OCc1ccccc1)[C@H](O)[C@@H](O)[C@@H](OCc1ccccc1)C(=O)N[C@@H](CCSC)C(=O)NC,-,-,cytopathic effect,-,>58 µM

ECn is the concentration giving n% inhibition of infection, replication or growth. Rows are shuffled and stem from different studies.